Reference: PMC11117723, “Benzene with Alkyl Chains Is a Universal Scaffold for Multivalent Virucidal Antivirals” (ACS Central Science, 2024)

Key:
Format in all cases: cell-based
[1] = test system: HSV-2; test: HSV-2 inhibition (dose response) plaque assay on Vero cells; conditions: CC50 Vero / EC50 HSV-2
[2] = test system: SARS-CoV-2 (Alpha); test: SARS-CoV-2 (alpha strain) inhibition plaque assay on Vero E6 cells; conditions: CC50 Vero E6 / EC50
[3] = test system: SARS-CoV-2 (Omicron); test: SARS-CoV-2 Omicron dose-response assay on Vero E6 cells; conditions: CC50 Vero E6 / EC50

| Compound | SI (HSV-2) [1] | SI (SARS-CoV-2 Alpha) [2] | SI (SARS-CoV-2 Omicron) [3] |
| --- | --- | --- | --- |
| O=S(=O)(O)OCCCCCCCCCSCC(CSCCCCCCCCCOS(=O)(=O)O)(CSCCCCCCCCCOS(=O)(=O)O)CSCCCCCCCCCOS(=O)(=O)O [P4C9S] | 29 | 8 |  |
| O=S(=O)(O)OCCCCCCCCCCCSCc1c(CSCCCCCCCCCCCOS(=O)(=O)O)c(CSCCCCCCCCCCCOS(=O)(=O)O)c(CSCCCCCCCCCCCOS(=O)(=O)O)c(CSCCCCCCCCCCCOS(=O)(=O)O)c1CSCCCCCCCCCCCOS(=O)(=O)O [B6C11S] | 77 | 73 | 15 |
| CCc1c(CSCCCCCCOS(=O)(=O)O)c(CC)c(CSCCCCCCOS(=O)(=O)O)c(CC)c1CSCCCCCCOS(=O)(=O)O [BET3C6S] | > 17 |  |  |
| O=S(=O)(O)OCCCCCCCCCCn1cc(COc2cc(OCc3cn(CCCCCCCCCCOS(=O)(=O)O)nn3)cc(OCc3cn(CCCCCCCCCCOS(=O)(=O)O)nn3)c2)nn1 [BTA3C10S] | > 22 |  |  |
| O=S(=O)(O)OCCCCCCSCc1cc(CSCCCCCCOS(=O)(=O)O)cc(CSCCCCCCOS(=O)(=O)O)c1 [B3C6S] | > 7 | > 2.7 |  |
| O=S(=O)(O)OCCCCCCCCCSCC(COS(=O)(=O)O)(CSCCCCCCCCCOS(=O)(=O)O)CSCCCCCCCCCOS(=O)(=O)O [P3C9S] | 21 | 40 |  |
| CCc1c(CSCCCCCCCCCOS(=O)(=O)O)c(CC)c(CSCCCCCCCCCOS(=O)(=O)O)c(CC)c1CSCCCCCCCCCOS(=O)(=O)O [BET3C9S] | 6 | 15 |  |
| O=S(=O)(O)OCCCCCCCCCCO[C@H]1[C@H](OS(=O)(=O)O)[C@H](OCCCCCCCCCCOS(=O)(=O)O)[C@H](OS(=O)(=O)O)[C@@H](OCCCCCCCCCCOS(=O)(=O)O)[C@@H]1OS(=O)(=O)O [I3C10S] | > 2 |  |  |
| O=S(=O)(O)OCCCCCCCCCSCc1cccc(CSCCCCCCCCCOS(=O)(=O)O)c1CSCCCCCCCCCOS(=O)(=O)O [OB3C9S] | 8 | 13 |  |
| O=S(=O)(O)OCCCCCCCCCCCSCc1cc(CSCCCCCCCCCCCOS(=O)(=O)O)cc(CSCCCCCCCCCCCOS(=O)(=O)O)c1 [B3C11S] | 15 | 13 |  |
| O=S(=O)(O)OCCCCCCCCCSCc1c(CSCCCCCCCCCOS(=O)(=O)O)c(CSCCCCCCCCCOS(=O)(=O)O)c(CSCCCCCCCCCOS(=O)(=O)O)c(CSCCCCCCCCCOS(=O)(=O)O)c1CSCCCCCCCCCOS(=O)(=O)O [B6C9S] | 3 | 9 |  |
| O=S(=O)(O)OCCCCCCCCCSCc1cc(CSCCCCCCCCCOS(=O)(=O)O)cc(CSCCCCCCCCCOS(=O)(=O)O)c1 [B3C9S] | 42 | 13 | 11 |
| O=c1n(CCSCCCCCCCCCOS(=O)(=O)O)c(=O)n(CCSCCCCCCCCCOS(=O)(=O)O)c(=O)n1CCSCCCCCCCCCOS(=O)(=O)O [A3C9S] | 11 | 2 |  |
